Pooled drug test results. Numbers come from NIAID ChemDB, via PubChem.

All rows: whole-cell or culture tests; agent: Candida albicans; measure: MIC50

Rows are shuffled and stem from different studies.

Nc1[nH]c(=O)ncc1F ; strain or isolate: 97 isolates ; result: 0.125 µg/mL
CSc1c(S(=O)c2ccccc2)c(O)c2ccccc2c1O ; result: >3 µg/mL
CC(=O)N1CCN(c2ccc(OC[C@H]3CO[C@](Cn4ccnc4)(c4ccc(Cl)cc4Cl)O3)cc2)CC1 ; strain or isolate: 50 isolates ; result: 0.01 µg/mL
Cn1cc(-c2ccccc2)c(C(c2cccc3ccccc23)n2ccnc2)c1 ; strain or isolate: 33 strains ; result: 8 µg/mL
O[C@](Cn1cncn1)(Cn1cnc(/C=C/c2ccc(OCC(F)(F)C(F)F)cc2)n1)c1ccc(F)cc1F ; strain or isolate: 119 isolates ; result: ≤0.007 µg/mL
CCCCCCCCCCCCCCCC(=O)NC1CC(O)C(O)NC(=O)C2C(O)C(C)CN2C(=O)C(C(O)CC(N)=O)NC(=O)C(C(O)Cc2ccc(O)c(OS(=O)(=O)O)c2)NC(=O)C2CC(O)CN2C(=O)C(C(C)O)NC1=O ; result: 0.008 µg/mL
NC(=NCc1ccccc1)NCCCCCCCN1CCCCCCCCN=C(N)NC1=O ; strain or isolate: ATCC 60193 ; result: 2.5 µM
O=Cc1cc2c(cc1O)[nH]c1ccccc12 ; result: 29.3 µg/mL
O=C1C(Nc2ccccc2)=C(S(=O)c2ccc(O)cc2)C(=O)c2ccccc21 ; result: >3 µg/mL
CC(=O)N1CCN(c2ccc(OC[C@H]3CO[C@](Cn4ccnc4)(c4ccc(-c5ccccc5)cc4)O3)cc2)CC1 ; strain or isolate: 44 strains ; result: >256 µg/mL
c1ccc(-c2ccc(C(c3c[nH]cc3-c3ccccc3)n3ccnc3)cc2)cc1 ; strain or isolate: 33 strains ; result: 32 µg/mL
CC(C)CCC[C@@H](C)[C@H]1CCC2C3C(=O)CC4CC(=O)CC[C@]4(C)C3CC[C@@]21C ; strain or isolate: CIP 1663-86 ; result: >50 µg/mL
COc1ccc2c(c1)[nH]c1cc(O)c(C=O)cc12 ; result: 2.8 µg/mL
c1ccc(-c2c[nH]cc2C(c2ccc3ccccc3c2)n2ccnc2)cc1 ; strain or isolate: 33 strains ; result: 16 µg/mL
CC[C@@H]([C@H](C)O)n1ncn(-c2ccc(N3CCN(c4ccc(OC[C@@H]5CO[C@@](Cn6cncn6)(c6ccc(F)cc6F)C5)cc4)CC3)cc2)c1=O ; strain or isolate: 19 strains (fluconazole-susceptible) ; result: 0.063 µg/mL
CCCCCCCCCCCCCCCC(=O)NC1CC(O)C(O)NC(=O)C2C(O)C(C)CN2C(=O)C(C(O)CC(N)=O)NC(=O)C(C(O)C(O)c2ccc(O)c(OS(=O)(=O)O)c2)NC(=O)C2CC(O)CN2C(=O)C(C(C)O)NC1=O ; strain or isolate: FP633 ; result: 0.025 µg/mL
CC(=O)c1ccc(Nc2ccnc(Nc3ccc(C(C)=O)cc3)n2)cc1 ; result: 6.6 µg/mL
CCCCCOc1ccc(-c2ccc(-c3ccc(C(=O)N[C@H]4C[C@@H](O)[C@@H](O)NC(=O)[C@@H]5[C@@H](O)[C@@H](C)CN5C(=O)[C@H]([C@H](C)O)NC(=O)[C@H]([C@H](O)[C@@H](O)c5ccc(O)cc5)NC(=O)[C@@H]5C[C@@H](O)CN5C(=O)[C@H]([C@H](C)O)NC4=O)cc3)cc2)cc1 ; strain or isolate: 42 isolates ; result: 0.002 µg/mL
CC(C(O)(Cn1cncn1)c1ccc(F)cc1F)S(C)(=O)=O ; strain or isolate: 52 strains ; result: 2 µg/mL
N=C(N)N(CCCCCCCCCN=C(N)N)CCCCCCCN=C(N)N ; strain or isolate: 15T ; result: 10 µM
Clc1ccc(C(c2cccc3ccccc23)n2ccnc2)s1 ; strain or isolate: 23 strains ; result: 2 µg/mL
OC(Cn1cncn1)(Cn1cncn1)c1ccc(F)cc1F ; strain or isolate: 50 isolates ; result: 0.16 µg/mL
CCC(C)n1ncn(-c2ccc(N3CCN(c4ccc(OC[C@H]5CO[C@](Cn6cncn6)(c6ccc(Cl)cc6Cl)O5)cc4)CC3)cc2)c1=O ; strain or isolate: ATCC 90028 ; result: 0.0022 µg/mL
O=C1C(Nc2ccc(Cl)cc2)=C(S(=O)c2ccc(O)cc2)C(=O)c2ccccc21 ; result: 0.53–1 µg/mL
CC(C)CCC[C@@H](C)[C@H]1CCC2C3C(CC[C@@]21C)[C@@]1(C)CC[C@H](O)C=C1C[C@@H]3O ; strain or isolate: CIP 1663-86 ; result: 12.5 µg/mL
c1ccc(-c2c[nH]cc2C(c2cccc3ccccc23)n2ccnc2)cc1 ; strain or isolate: 33 strains ; result: 2 µg/mL
CC(C)CCC[C@@H](C)[C@H]1CC[C@H]2[C@@H]3[C@@H](O)C=C4C[C@@H](O)CC[C@]4(C)[C@H]3CC[C@]12C ; strain or isolate: CIP 1663-86 ; result: >50 µg/mL
O=[N+]([O-])c1ccc(Nc2ccnc(Nc3ccc([N+](=O)[O-])cc3)n2)cc1 ; result: 0.62 µg/mL
CCC(C)n1ncn(-c2ccc(N3CCN(c4ccc(OC[C@H]5CO[C@](Cn6cncn6)(c6ccc(Cl)cc6Cl)O5)cc4)CC3)cc2)c1=O ; strain or isolate: Fluconazole-resistant ; result: 1 µg/mL
CCC(C)n1ncn(-c2ccc(N3CCN(c4ccc(OC[C@H]5CO[C@](Cn6cncn6)(c6ccc(Cl)cc6Cl)O5)cc4)CC3)cc2)c1=O ; strain or isolate: ATCC 10231 ; result: 5 µg/mL
C[C@H]1[C@H](O)[C@@H](C)/C=C/C=C/C=C/C=C/C=C/C=C/C=C/[C@H](O[C@@H]2O[C@H](C)[C@@H](O)[C@H](N)[C@@H]2O)C[C@@H]2O[C@](O)(C[C@@H](O)C[C@@H](O)CC[C@H](O)[C@@H](O)C[C@@H](O)CC(=O)O[C@H]1C)C[C@H](O)[C@H]2C(=O)O ; strain or isolate: 40 strains ; result: 0.25 µg/mL
COC(=O)c1ccc2[nH]c3ccccc3c2c1 ; result: 9.5 µg/mL
Oc1ccc(Nc2ccnc(Nc3ccc(O)cc3)n2)cc1 ; result: 62 µg/mL
CC(=O)N1CCN(c2ccc(OCC3COC(Cn4ccnc4)(c4ccc(-c5ccccc5)cc4)O3)cc2)CC1 ; strain or isolate: 44 strains ; result: 32 µg/mL
Clc1ccccc1Nc1ccnc(Nc2ccccc2Cl)n1 ; result: 1.14 µg/mL
COc1c2c(cc3oc(=O)ccc13)OC(C)(C)C=C2 ; result: >50 µg/mL
Cc1ccc(C(c2ccc3ccccc3c2)n2ccnc2)cc1 ; strain or isolate: 23 strains ; result: 4 µg/mL
C#CCNC(N)=NCCCCCCCN1CCCCCCCCN=C(N)NC1=O ; strain or isolate: ATCC 60193 ; result: 2.5 µM
C[C@H]1[C@H](O)[C@@H](C)/C=C/C=C/C=C/C=C/C=C/C=C/C=C/[C@H](O[C@@H]2O[C@H](C)[C@@H](O)[C@H](N)[C@@H]2O)C[C@@H]2O[C@](O)(C[C@@H](O)C[C@@H](O)CC[C@H](O)[C@@H](O)C[C@@H](O)CC(=O)O[C@H]1C)C[C@H](O)[C@H]2C(=O)O ; strain or isolate: ATCC 10231 ; result: 5 µg/mL
Clc1cc(Cl)c2c(c1)CCc1ccccc1C2n1ccnc1 ; strain or isolate: 35 isolates ; result: 0.03 µg/mL
c1ccc2c(C(c3ccc(-n4cccc4)cc3)n3ccnc3)cccc2c1 ; strain or isolate: 23 strains ; result: 2 µg/mL
O[C@](Cn1cncn1)(Cn1cnc(/C=C/c2ccc(OCC(F)(F)C(F)F)cc2)n1)c1ccc(F)cc1F ; strain or isolate: 50 strains (fluconazole-susceptible) ; result: ≤0.0078 µg/mL
C[C@@H](c1ncncc1F)[C@](O)(Cn1cncn1)c1ccc(F)cc1F ; strain or isolate: Isolate HR-Micro ; setting: 24 h ; result: 0.02 µg/mL
CCC(C)CC(C)CCCCCCCCC(=O)N[C@H]1C[C@@H](O)[C@H](NCCN)NC(=O)[C@@H]2[C@@H](O)CCN2C(=O)[C@H]([C@H](O)CCN)NC(=O)[C@H]([C@H](O)[C@@H](O)c2ccc(O)cc2)NC(=O)[C@@H]2C[C@@H](O)CN2C(=O)[C@H]([C@@H](C)O)NC1=O ; strain or isolate: 15 strains ; result: 0.25 µg/mL
C/C=C/CN=C(N)NCCCCCCCN1CCCCCCCCN=C(N)NC1=O ; strain or isolate: 15T ; result: 1.25 µM
CCC(C)n1ncn(-c2ccc(N3CCN(c4ccc(OC[C@H]5CO[C@](Cn6cncn6)(c6ccc(Cl)cc6Cl)O5)cc4)CC3)cc2)c1=O ; strain or isolate: 131 isolates ; result: 0.03 µg/mL
CC(C)CCC[C@@H](C)[C@H]1CCC2C3C[C@@H](O)C4C[C@@H](O)CC[C@]4(C)C3CC[C@@]21C ; strain or isolate: CIP 1663-86 ; result: >25 µg/mL
CCC(C)CC(C)CCCCCCCCC(=O)N[C@H]1C[C@@H](O)[C@@H](OCCN)NC(=O)[C@@H]2[C@@H](O)CCN2C(=O)[C@H]([C@@H](O)CCN)NC(=O)[C@H]([C@H](O)[C@@H](O)c2ccc(O)cc2)NC(=O)[C@@H]2C[C@@H](O)CN2C(=O)[C@H]([C@H](C)O)NC1=O ; strain or isolate: 50 isolates ; result: 0.1 µg/mL
COc1ccc2c(c1)[nH]c1cc(OC)c(C(=O)O)cc12 ; result: >50 µg/mL
Cn1cc(-c2ccccc2)c(C(c2ccc3ccccc3c2)n2ccnc2)c1 ; strain or isolate: 33 strains ; result: 64 µg/mL
C[C@H]1[C@H](O)[C@@H](C)/C=C/C=C/C=C/C=C/C=C/C=C/C=C/[C@H](O[C@@H]2O[C@H](C)[C@@H](O)[C@H](N)[C@@H]2O)C[C@@H]2O[C@](O)(C[C@@H](O)C[C@@H](O)CC[C@H](O)[C@@H](O)C[C@@H](O)CC(=O)O[C@H]1C)C[C@H](O)[C@H]2C(=O)O ; strain or isolate: 126 strains ; result: 0.06 µg/mL
c1ccc(C(c2ccc3ccccc3c2)n2ccnc2)cc1 ; strain or isolate: 23 strains ; result: 8 µg/mL
O=[N+]([O-])/C(Br)=C\c1ccc(Br)o1 ; strain or isolate: 31 strains ; result: 1.2 µg/mL
CS(=O)(=O)OC[C@H]1CO[C@](Cn2ccnc2)(c2ccc(-c3ccccc3)cc2)O1 ; strain or isolate: 44 strains ; result: >256 µg/mL
CC(C)=CCN=C(N)NCCCCCCCCCNCCCCCCCNC(N)=NCC=C(C)C ; strain or isolate: 15T ; result: >80 µM
Clc1ccc(C(c2cccc3ccccc23)n2ccnc2)cc1 ; strain or isolate: 23 strains ; result: 8 µg/mL
CCCCCCCCCCCCCCCC(=O)NC1CC(O)C(O)NC(=O)C2C(O)C(C)CN2C(=O)C(C(O)CC(N)=O)NC(=O)C(C(O)Cc2ccc(O)c(OS(=O)(=O)O)c2)NC(=O)C2CC(O)CN2C(=O)C(C(C)O)NC1=O ; strain or isolate: FP633 ; result: 0.025 µg/mL
COc1ccc(Nc2ccnc(Nc3ccc(OC)cc3)n2)cc1 ; result: 8 µg/mL
COc1ccc(C(c2ccc3ccccc3c2)n2ccnc2)cc1 ; strain or isolate: 23 strains ; result: 8 µg/mL

8 of the rows above, restated:

SMILES,strain or isolate,setting,result
CCC(C)CC(C)CCCCCCCCC(=O)N[C@H]1C[C@@H](O)[C@@H](OCCN)NC(=O)[C@@H]2[C@@H](O)CCN2C(=O)[C@H]([C@@H](O)CCN)NC(=O)[C@H]([C@H](O)[C@@H](O)c2ccc(O)cc2)NC(=O)[C@@H]2C[C@@H](O)CN2C(=O)[C@H]([C@H](C)O)NC1=O,50 isolates,-,0.1 µg/mL
CCC(C)n1ncn(-c2ccc(N3CCN(c4ccc(OC[C@H]5CO[C@](Cn6cncn6)(c6ccc(Cl)cc6Cl)O5)cc4)CC3)cc2)c1=O,ATCC 90028,-,0.0022 µg/mL
CCCCCCCCCCCCCCCC(=O)NC1CC(O)C(O)NC(=O)C2C(O)C(C)CN2C(=O)C(C(O)CC(N)=O)NC(=O)C(C(O)Cc2ccc(O)c(OS(=O)(=O)O)c2)NC(=O)C2CC(O)CN2C(=O)C(C(C)O)NC1=O,FP633,-,0.025 µg/mL
O=C1C(Nc2ccccc2)=C(S(=O)c2ccc(O)cc2)C(=O)c2ccccc21,-,-,>3 µg/mL
C[C@@H](c1ncncc1F)[C@](O)(Cn1cncn1)c1ccc(F)cc1F,Isolate HR-Micro,24 h,0.02 µg/mL
CCC(C)n1ncn(-c2ccc(N3CCN(c4ccc(OC[C@H]5CO[C@](Cn6cncn6)(c6ccc(Cl)cc6Cl)O5)cc4)CC3)cc2)c1=O,ATCC 10231,-,5 µg/mL
CC(C(O)(Cn1cncn1)c1ccc(F)cc1F)S(C)(=O)=O,52 strains,-,2 µg/mL
O[C@](Cn1cncn1)(Cn1cnc(/C=C/c2ccc(OCC(F)(F)C(F)F)cc2)n1)c1ccc(F)cc1F,50 strains (fluconazole-susceptible),-,≤0.0078 µg/mL

Blank or dashed fields: not listed here. a–b is a range or a potency band. A number after MIC or MFC names an inhibition level or a share of isolates.